Assays:
[1] = target: OsExo70F3^Δ93 (rice); test: ITC; conditions: domain or fragment
[2] = target: OsExo70F3^Δ93 (rice); test: ITC; conditions: domain or fragment; remark: listed apart in the source

Work on “AVR-Pii effector domain (residues 20 to 70), purified” yielded a Kd [1] of 4.19 nM and a Kd [2] of 2.79 nM.
